Experiments:
[1] = test system: CHO K1 cell line expressing the HA of influenza H1N1 (A/California/04/2009)
[2] = test system: CHO K1 cell line expressing the HA of influenza H1N1 (A/California/04/2009); remark: listed apart in the source

CT-P6: negative control, anti-Her2 antibody
cytotoxicity (ADCC) [1]: no cytotoxicity
cytotoxicity (CDC) [2]: no cytotoxicity

Reference: patent US10703802B2 (priority 2013, dated 2020)
